{
  "source": "patent US9642858B2",
  "about": "“Use of resazurin, or analogs thereof, for antibacterial therapy” (priority 2012, dated 2017)",
  "test_system": "F. tularensis LVS",
  "parameters": "species or system Francisella tularensis",
  "data": [
    {"smiles": "O=c1ccc2[n+]([O-])c3ccc(O)cc3oc-2c1", "note": "[resazurin, 7-Hydroxy-3H-phenoxazin-3-one 10-oxide]", "values": [
      {"measurement": "increase of the ratio of resorufin to resazurin", "result": 3, "unit": "fold"},
      {"measurement": "maximum ratio of resorufin to resazurin", "result": 5}
    ]}
  ]
}
